Source: paper PMC8765781, “A platform of assays for the discovery of anti-Zika small-molecules with activity in a 3D-bioprinted outer-blood-retina model” (PLoS ONE, 2022)

How the values were obtained:
ZIKV = experiment: NIAID flavivirus panel, neutral red CPE assay in Vero cells: ZIKV
[1] = tested on: DENV (Dengue virus type 2, strain New Guinea C); experiment: NIAID flavivirus panel, neutral red CPE assay in Vero cells: DENV
YFV (YFV 17D) = experiment: NIAID flavivirus panel, neutral red CPE assay in Vero cells: YFV
WNV (Kern515/WN02) = experiment: NIAID flavivirus panel, neutral red CPE assay in Vero cells: WNV
[2] = tested on: caspase-3 activity induced by ZIKV in Vero cells; experiment: Caspase-Glo 3/7 assay in ZIKV-infected Vero cells; type: cell-based; conditions: read-out: Caspase 3 (ZIKV Antiviral Assays), IC50, 48 hr, unit inferred
[3] = tested on: ZIKV-RLuc (Cambodian strain FSS13025); experiment: Recombinant ZIKV-RLuc (Renilla luciferase reporter) assay in Vero cells; type: cell-based, Zika virus
[4] = tested on: ZIKV-mCherry (Cambodian strain FSS13025); experiment: ZIKV-mCherry reporter imaging assay in Vero cells; type: cell-based, Zika virus
[5] = tested on: wild-type ZIKV (Ugandan MR766 strain) in Vero cells; experiment: ZIKV cytopathic effect (CPE) inhibition qHTS assay, CellTiter-Glo readout; type: cell-based, Zika virus

CC1=C[C@H]2O[C@@H]3[C@H](O)C[C@](C)([C@@]2(CO)[C@H](O)C1=O)[C@]31CO1 [NCGC00180572-02, vomitoxin]
Selectivity Index ZIKV (CC50/EC50) (ZIKV; Table 1, Vero cells): 34 | SI value ZIKV (CC50/EC50) (ZIKV; Table S1, Vero cells): 34 | Selectivity Index DENV (CC50/EC50) ([1]; Table 1, Vero cells): 9 | SI value DENV (CC50/EC50) ([1]; Table S1, Vero cells): 9 | Selectivity Index YFV (CC50/EC50) (YFV (YFV 17D); Table 1, Vero cells): 3 | SI value YFV (CC50/EC50) (YFV (YFV 17D); Table S1, Vero cells): 3 | Selectivity Index WHV (CC50/EC50) (WNV (Kern515/WN02); Table 1, Vero cells): 3 | SI value WHV (CC50/EC50) (WNV (Kern515/WN02); Table S1, Vero cells): 2.7

CC1=CC2OC3CC(O)[C@](C)([C@@]2(C)C(O)C1=O)[C@]31CO1 (stereo partly drawn)
IC50 [2]: 2340 nM | IC50 [3]: 2610 nM | CC-v2 (curve class of the dose response curve) [4]: -1.2 | Efficacy (difference between neutral response and maximum compound response) [4]: -58.388 | Max Resp (difference between neutral response and response at highest compound concentration) [4]: -99.093 | AC50 ([4]; Hill fit): 1680 nM | Log AC50 (M) ([4]; log units of molar potency from Hill fit (negative values)): -5.7741 M | IC50 [5]: 2310 nM | CC-v2 (curve class classification of the dose response curve) ([5]; curve class v2 (Inglese et al. 2006)): -1.2 | Max Resp ([5]; difference between neutral response and compound response for highest compound concentration): -59.481 | Efficacy ([5]; difference between neutral response and maximum compound response): -64.662 | AC50 ([5]; from Hill fit of the response curve, 50% of maximum activity response, 194 cherry-picked compounds, protocol name not given): 2310 nM | Log AC50 (M) ([5]; potency in log units (Molar) from Hill fit of the response curve, 194 cherry-picked compounds, protocol name not given): -5.6362 M
